PubChem BioAssay AID624099, ICCB-Longwood, 2012
Aim: 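Knock-downs relieving repression by E2 of an HPV18 LCR luciferase reporter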 (primary screen). Cell system: human C33A cervical carcinoma cells (HPV-negative) stably expressing BPV1 E2 and an HPV18 LCR luciferase reporter. Reagents: siRNA pool against human genes, 40 nM. Time to read-out: 72 h. Measurement: 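Per-well luciferase luminescence, z-scored on each plate against the plate mean and SD with control wells left out, then averaged across three replicate plates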. Direction: mean z-score and z-score: higher = stronger reporter signal, weaker E2 silencing. Call rule: 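Hit if mean z-score reaches 2 and two or more of three replicate z-scores also reach 2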.
Shown is an unselected part of about 21,000 deposited reagents. In the full data, 497 (2.4%) got an active call. 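Higher z means weaker E2 silencing; only reporter increases were scored, and knock-downs that hurt cell survival may mask genuine repressor factors.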 No sequences are given here.

After knock-down of SNX15 (sorting nexin 15), the screen gave mean z-score 0.35; z-score, replicate A = 0.72; z-score, replicate B = 0.54; z-score, replicate C = -0.19; inactive. CA6 (carbonic anhydrase 6) scored mean z-score 0.1; z-score, replicate A = 0.24; z-score, replicate B = -0.03; z-score, replicate C = 0.1; inactive. GJA5 (gap junction protein alpha 5) showed mean z-score 1.45; z-score, replicate A = 1.71; z-score, replicate B = 1.24; z-score, replicate C = 1.41; inactive. For ZNF787 (zinc finger protein 787), the values are mean z-score 0.63; z-score, replicate A = 0.51; z-score, replicate B = 0.49; z-score, replicate C = 0.89; inactive. For FIBIN (fin bud initiation factor homolog) the deposit lists mean z-score -0.34; z-score, replicate A = -0.36; z-score, replicate B = -0.4; z-score, replicate C = -0.27; inactive. Against PAK1IP1 (PAK1 interacting protein 1) the deposit lists mean z-score -0.37; z-score, replicate A = -0.07; z-score, replicate B = -0.32; z-score, replicate C = -0.71; inactive.

DNASE1L2 (deoxyribonuclease 1 like 2) scored mean z-score -0.55; z-score, replicate A = -0.46; z-score, replicate B = -0.61; z-score, replicate C = -0.59; inactive.

2 entries from above, ordered by “mean z-score”, descending:
SNX15 (sorting nexin 15) — mean z-score = 0.35; z-score, replicate A = 0.72; z-score, replicate B = 0.54; z-score, replicate C = -0.19; call = inactive
CA6 (carbonic anhydrase 6) — mean z-score = 0.1; z-score, replicate A = 0.24; z-score, replicate B = -0.03; z-score, replicate C = 0.1; call = inactive

Next results follow.
VSX2 (visual system homeobox 2) gave mean z-score 0.02; z-score, replicate A = -0.02; z-score, replicate B = 0.1; z-score, replicate C = -0.03; inactive. Against SLC29A4, the entry reads mean z-score -0.05; z-score, replicate A = -0.23; z-score, replicate B = 0.13; z-score, replicate C = -0.13; inactive. For SPRED3 (sprouty related EVH1 domain containing 3) the deposit lists mean z-score -2.23; z-score, replicate A = -1.7; z-score, replicate B = -2.4; z-score, replicate C = -2.6; inactive. With knock-down of MSC (musculin), the screen gave mean z-score 0.25; z-score, replicate A = 0.18; z-score, replicate B = 0.24; z-score, replicate C = 0.34; inactive. LOC388235 (retired record) showed mean z-score 0.34; z-score, replicate A = 0.34; z-score, replicate B = 0.26; z-score, replicate C = 0.4; inactive.
